Reference: article PMC9052158, “Mycobacterium tuberculosis encodes a YhhN family membrane protein with lysoplasmalogenase activity that protects against toxic host lysolipids” (The Journal of Biological Chemistry, 2022)

By UniProt entry, the sequences of proteins in these tests, tags left out. Where a name states a change or a piece, a line headed by the entry shows the natural chain unless it says otherwise.
UniProt P9WG51: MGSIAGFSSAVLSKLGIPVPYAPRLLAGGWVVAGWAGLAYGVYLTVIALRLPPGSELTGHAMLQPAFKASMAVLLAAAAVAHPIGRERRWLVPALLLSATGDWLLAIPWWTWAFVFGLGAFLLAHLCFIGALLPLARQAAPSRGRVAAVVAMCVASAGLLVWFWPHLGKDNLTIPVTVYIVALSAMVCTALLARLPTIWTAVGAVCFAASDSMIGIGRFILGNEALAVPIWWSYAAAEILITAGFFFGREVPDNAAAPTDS

How the values were obtained:
[1] = system: CCCCCCCCCCCCCC/C=C\OC[C@@H](O)COP(=O)([O-])OCC[N+](C)(C)C; experiment: purified protein; settings: pH 7.1
[2] = system: CCCCCCCCCCCCCC/C=C\OC[C@@H](O)COP(=O)(O)OCCN; experiment: purified protein; settings: pH 7.1
MtbYhhN (261-aa protein) = molecular target: T1, MtbYhhN (261-aa protein) (Mycobacterium tuberculosis, UniProt P9WG51)
T1 construct: gene Rv1401

Row | Substance | Km [1] [µM] | Km [2] [µM] | Ki (MtbYhhN (261-aa protein)) [µM]
1 | MtbYhhN (261-aa protein) (Mycobacterium tuberculosis H37Rv) | 76.9 | 89.4 | 
2 | lysophosphatidic acid [LPA] |  |  | 90 to 100
